# Reference: PubChem BioAssay AID588549 (Broad Institute, 2011)
# The entries are a selection whose mix differs from that of the whole data set. Some salts or complexes appear as unconnected parts, following the source record. Calls of active or inactive are those of the source. Cut-off read from the data, not from the text of the source: active = inhibition above about 8.5% (passing the limit was not always enough); inconclusive = no clear call, values can overlap the other calls.
# Tested on: Mycobacterium tuberculosis FadD28 fatty-acid-AMP ligase
# Assay: inhibitors of FadD28 bisubstrate probe binding, primary screen, biochemical, fluorescence polarization, single point (AID 588549)
# Conditions: at 12.5 µM, active compounds read high
row,Structure (SMILES),inhibition
1,O=[N+]([O-])c1cc([N+](=O)[O-])c(O)c([N+](=O)[O-])c1.c1ccc(Oc2ccncc2)cc1,inactive: 0.568%
2,CCOC(=O)c1ccc(NP(C)(=O)Oc2ccc(OC)cc2)cc1 (stereo not given),inactive: -3.3%
3,CCOP(C)(=S)SCC(=O)NC(C)C(=O)O (stereo not given),inactive: -1.55%
4,CP(=O)(Nc1ccccn1)Oc1ccc(Cl)cc1 (stereo not given),inactive: 0.518%
5,CP(=O)(Oc1ccccc1)OC(c1ccccc1)C(F)(F)F (stereo not given),inactive: -2.73%
6,CP(=O)(Nc1ccc(SC(F)(F)F)cc1)Oc1ccc(Cl)cc1 (stereo not given),inactive: -7.43%
7,Cc1ccc(Nc2c([N+](=O)[O-])cc([N+](=O)[O-])cc2[N+](=O)[O-])cc1,inactive: 0.133%
8,Cc1cccc(C)c1OP(C)(=O)Nc1ccc(SC(F)(F)F)cc1 (stereo not given),inactive: -0.623%
9,Cc1cc(C)cc(OP(C)(=O)Nc2ccc(SC(F)(F)F)cc2)c1 (stereo not given),inactive: 1.21%
10,CP(=O)(NC(=O)Nc1ccccc1)Oc1ccccc1 (stereo not given),inactive: -1.48%
11,CCc1ccc(OP(C)(=O)N2CCN(c3ccc([N+](=O)[O-])cc3)CC2)cc1 (stereo not given),inactive: -2.27%
12,CP(=S)(Nn1cnnc1)Oc1ccccc1 (stereo not given),inactive: 0.122%
13,CP(=O)(Nc1ccccc1Br)Oc1ccccc1 (stereo not given),inactive: -2.62%
14,COc1ccccc1OP(C)(=O)Nc1ccccc1 (stereo not given),inactive: 0.261%
15,Cc1ccc(NP(C)(=O)Oc2ccccc2)c(C)c1 (stereo not given),inactive: -1.69%
16,COc1ccccc1OP(C)(=O)Nc1ccc(C)cc1 (stereo not given),inactive: -0.198%
17,CCOC(=O)c1ccc(NP(C)(=O)Oc2ccccc2)cc1 (stereo not given),inactive: -1.82%
18,Cc1cc(C)cc(OP(C)(N)=O)c1 (stereo not given),inactive: -0.528%
19,COc1ccc(OP(C)(=O)Nc2cccc(F)c2)cc1 (stereo not given),inactive: -0.88%
20,COc1ccccc1OP(C)(=O)Nc1cc(Cl)ccc1C (stereo not given),inactive: -0.952%
21,O=[N+]([O-])c1cc([N+](=O)[O-])c(Nc2cccnc2)c([N+](=O)[O-])c1,inactive: 0.636%
22,O=[N+]([O-])c1ccc2c(c1)C=Nc1ccccc1O2,inactive: -0.141%
23,Cc1cccc(C)c1OP(C)(N)=O (stereo not given),inactive: -0.976%
24,CC(C)(C)c1ccc(OP(C)(=O)Nc2ccc(SC(F)(F)F)cc2)cc1 (stereo not given),inactive: -0.462%

row,Structure (SMILES),inhibition
1,CCN(CC)CCCOC(=O)C(O)(c1ccccc1)c1ccccc1,inactive: 0.929%
2,Cc1ccc(C)c(NP(C)(=O)Oc2ccccc2)c1 (stereo not given),inactive: -1.04%
3,Cc1cc(C)cc(OP(C)(=O)Nc2ccccn2)c1 (stereo not given),inactive: 0.241%
4,CP(=O)(Nc1cccc(Br)c1)Oc1ccccc1 (stereo not given),inactive: -3.97%
5,COc1ccccc1OP(C)(=O)Nc1cccc(Br)c1 (stereo not given),inactive: -3.24%
6,CCOC(=O)c1ccc(NP(C)(=O)Oc2cc(C)cc(C)c2)cc1 (stereo not given),inactive: -1.83%
7,Cc1cc(C)cc(OP(C)(=O)Nc2ccc(C)cc2C)c1 (stereo not given),inactive: -3.38%
8,CC1=NCCc2c1[nH]c1ccccc21.O=[N+]([O-])c1cc([N+](=O)[O-])c(O)c([N+](=O)[O-])c1,inactive: -2.44%
9,O=C(O)c1cccc(Nc2c([N+](=O)[O-])cc([N+](=O)[O-])cc2[N+](=O)[O-])c1,inactive: 0.0925%
10,CN1CCCCC1COC(=O)C1(O)c2ccccc2CCc2ccccc21 (stereo not given),inactive: -1.7%
11,COc1ccccc1OP(C)(=O)Nc1c(C)cccc1C (stereo not given),inactive: -0.541%
12,CCCOc1ccc(NP(C)(=O)Oc2ccc(Cl)cc2)cc1 (stereo not given),inactive: 0.418%
13,CP(=O)(Nc1ccc(SC(F)(F)F)cc1)Oc1ccccc1 (stereo not given),inactive: -0.893%
14,CCOC(=O)C(CC)C1=NC(C)(C)Cc2ccccc21.O=[N+]([O-])c1cc([N+](=O)[O-])c(O)c([N+](=O)[O-])c1 (stereo not given),inactive: 0.222%
15,CC1=C2N=C(C=C3N=C(C(C)=C4[N-][C@@](C)([C@@H]5N=C1[C@](C)(CCC(=O)NC[C@@H](C)OP(=O)([O-])O[C@H]1[C@@H](O)[C@@H](n6cnc7cc(C)c(C)cc76)O[C@@H]1CO)[C@H]5CC(N)=O)[C@@](C)(CC(N)=O)[C@@H]4CCC(N)=O)[C@@](C)(CC(N)=O)[C@@H]3CCC(N)=O)C(C)(C)[C@@H]2CCC(N)=O.[C-]#N.[Co+3],inactive: -2.82%
16,O=[N+]([O-])c1cc([N+](=O)[O-])c(Nc2nnnn2CCO)c([N+](=O)[O-])c1,inactive: -2.78%
17,O=[N+]([O-])c1cc([N+](=O)[O-])c(-c2cnn(-c3ccccc3)c2)c([N+](=O)[O-])c1,inactive: -16%
18,Cc1nc2ccc3ccccc3c2s1.O=[N+]([O-])c1cc([N+](=O)[O-])c(O)c([N+](=O)[O-])c1,inactive: -1.22%
19,O=[N+]([O-])c1cc([N+](=O)[O-])c(-n2nnc3ccccc32)c([N+](=O)[O-])c1,inactive: -1.46%
20,CN(Cc1cccnc1)C(=O)COc1ccc(Cl)c(Cl)c1.O=[N+]([O-])c1cc([N+](=O)[O-])c(O)c([N+](=O)[O-])c1,inactive: -1.26%
21,CP(=O)(Nc1ccc2c(c1)OCCO2)Oc1ccccc1 (stereo not given),inactive: -3.13%
22,Cc1ccccc1NP(C)(=O)Nc1ccccc1C,inactive: -2.81%
23,CP(=O)(Nc1ccc(SC(F)(F)F)cc1)Oc1ccc(F)cc1 (stereo not given),inactive: -3.45%
24,CCOP(C)(=S)SCC(=O)NC(C)(CC)C(=O)O (stereo not given),inactive: 1.85%

row,Structure (SMILES),inhibition
1,O=[N+]([O-])c1ccc(OP2(=O)COCCO2)cc1 (stereo not given),inactive: 0.2%
2,Cc1cc(-c2cccc3ccccc23)c(C)cn1.O=[N+]([O-])c1cc([N+](=O)[O-])c(O)c([N+](=O)[O-])c1,inactive: -3.33%
3,O=[N+]([O-])c1cc([N+](=O)[O-])c(NCC2CCS(=O)(=O)C2)c([N+](=O)[O-])c1 (stereo not given),inactive: -2.66%
4,Cc1c(C(c2ccc3c(c2)OCO3)c2c(C)n(C)n(-c3ccccc3)c2=O)c(=O)n(-c2ccccc2)n1C.O=[N+]([O-])c1cc([N+](=O)[O-])c(O)c([N+](=O)[O-])c1,inactive: 0.98%
5,COc1ccc(OP(C)(=O)Nc2cccc(Br)c2)cc1 (stereo not given),inactive: -4.1%
6,CN(C)CCOC(=O)C(O)(c1ccccc1)C1CCCCC1 (stereo not given),inactive: 0.442%
7,COc1ccc(NP(C)(=O)Oc2ccccc2OC)cc1 (stereo not given),inactive: 0.626%
8,Cc1c([N+](=O)[O-])cc([N+](=O)[O-])c(Br)c1[N+](=O)[O-],inactive: 0.639%
9,CCN(CC)CCCOC(=O)C(O)(c1ccccc1)C1CCCCC1 (stereo not given),inactive: -3.42%
10,CP(=O)(Nc1ccccc1)Oc1ccc(F)cc1 (stereo not given),inactive: -0.0255%
11,O=[N+]([O-])c1cc([N+](=O)[O-])c(OC2CCCCC2O)c([N+](=O)[O-])c1 (stereo not given),inactive: 1.09%
12,CCCCCOc1ccc(NP(C)(=O)Oc2ccc(Cl)cc2Cl)cc1 (stereo not given),inactive: -5.07%
13,CCOC(=O)c1ccc(NP(C)(=O)Oc2ccc(F)cc2)cc1 (stereo not given),inactive: -2.34%
14,COc1ccc(OP(C)(=O)Nc2ccc(SC(F)(F)F)cc2)cc1 (stereo not given),inactive: -7.98%
15,O=C(OC1CN2CCC1CC2)c1ccc([N+](=O)[O-])cc1 (stereo not given),inactive: 0.413%
16,O=C(OCCN1CCN(CCOCc2ccccc2)CC1)C(O)(c1ccccc1)c1ccccc1,inactive: -0.458%
17,COc1ccc2c(c1O)-c1c(O)c(OC)cc3c1[C@H](C2)[N+](C)(C)CC3.O=[N+]([O-])c1cc([N+](=O)[O-])c([O-])c([N+](=O)[O-])c1[O-],inactive: -1.2%
18,O=[N+]([O-])c1cc([N+](=O)[O-])c(Nc2ccc(Cl)cc2)c([N+](=O)[O-])c1,inactive: -1.37%
19,CP(=O)(Nc1ccccc1F)Oc1ccccc1 (stereo not given),inactive: -0.115%
20,CC(C)c1ccc(OP(C)(=O)Nc2ccc(SC(F)(F)F)cc2)cc1 (stereo not given),inactive: -1.78%
21,Cc1c(NP(C)(=O)Oc2ccc(C(C)C)cc2)c(=O)n(-c2ccccc2)n1C (stereo not given),inactive: -3.33%
22,O=[N+]([O-])c1cc([N+](=O)[O-])c(Nc2ccccn2)c([N+](=O)[O-])c1,inactive: -3.98%
23,COc1ccccc1OP(C)(=O)Nc1ccc(C)cc1C (stereo not given),inactive: 0.45%
24,CP(=O)(Nc1ccccn1)Oc1ccccc1 (stereo not given),inactive: -0.724%

row,Structure (SMILES),inhibition
1,CCc1ccc(OP(C)(=O)O)cc1,inactive: -0.19%
2,COc1ccccc1OP(C)(=O)Nc1ccc(Br)cc1 (stereo not given),inactive: 0.75%
3,COc1ccc(OP(C)(=O)Nc2ccccn2)cc1 (stereo not given),inactive: -0.194%
4,CN(C)CCOC(=O)C(O)(c1ccccc1)C1CCCC1 (stereo not given),inactive: -5.05%
5,CP(=O)(Nc1ccc(Cl)cc1Cl)Oc1ccccc1 (stereo not given),inactive: -1.18%
6,CCCCCCCCCCCCCCCC1C[N+](C)(C)CCOP(C)(=O)O1 (stereo not given),inactive: -8.25%
7,CP(=O)(OCCOc1ccccc1)OCCOc1ccccc1,inactive: -0.501%
8,Cc1cc(C)cc(OP(C)(=O)Nc2cccc(C(F)(F)F)c2)c1 (stereo not given),inactive: -5.6%
9,O=C1C(O)=C([N+](=O)[O-])C(=O)C(O)=C1[N+](=O)[O-],inactive: -2.37%
10,COc1ccccc1OP(C)(=O)Nc1ccc(C)c(C)c1 (stereo not given),inactive: -0.256%
11,COc1ccc(OP(C)(=O)Nc2ccccc2Br)cc1 (stereo not given),inactive: -3.01%
12,CCOC(=O)c1ccc(NP(C)(=O)Oc2ccc(Cl)cc2)cc1 (stereo not given),inactive: -3.92%
13,CP(=O)(OC12CC3CC(CC(C3)C1)C2)OC12CC3CC(CC(C3)C1)C2,inactive: -2.9%
14,COc1ccccc1OP(C)(=O)Nc1ccccc1Br (stereo not given),inactive: 0.062%
15,CC(C)(C)c1ccc(OP(C)(=O)O)cc1,inactive: -0.027%
16,CP(=O)(Nc1ccc(Cl)cc1)Oc1ccc(F)cc1 (stereo not given),inactive: -1.27%
17,CN(C)C(=O)c1c([N+](=O)[O-])cc([N+](=O)[O-])cc1[N+](=O)[O-],inactive: -0.255%
18,COc1ccc(OP(C)(=O)Nc2ccc(Br)cc2)cc1 (stereo not given),inactive: -1.28%
19,CCN(CC)CC(O)COC(=O)C(O)(c1ccccc1)C1CCCCC1 (stereo not given),inactive: -1.01%
20,O=C(OCCCN1CCCC1)C(O)(c1ccccc1)C1CCCCC1 (stereo not given),inactive: -0.776%
21,COc1ccccc1OP(C)(=O)Nc1c(C)n(C)n(-c2ccccc2)c1=O (stereo not given),inactive: -1.92%
22,CCc1ccc(OP(C)(=O)Nc2cccnc2)cc1 (stereo not given),inactive: 0.346%
23,CP(=O)(Oc1ccccc1)N1CCOC1=O (stereo not given),inactive: -3.56%
